Data from paper PMC4727981 (Archives of biochemistry and biophysics, 2015).

Columns and labels:
[1] = target: T1, human KIAA1363 (Homo sapiens, UniProt Q6PIU2); assay type: biochemical
T1 sequence (Q6PIU2 1-416 isoform Q6PIU2-2): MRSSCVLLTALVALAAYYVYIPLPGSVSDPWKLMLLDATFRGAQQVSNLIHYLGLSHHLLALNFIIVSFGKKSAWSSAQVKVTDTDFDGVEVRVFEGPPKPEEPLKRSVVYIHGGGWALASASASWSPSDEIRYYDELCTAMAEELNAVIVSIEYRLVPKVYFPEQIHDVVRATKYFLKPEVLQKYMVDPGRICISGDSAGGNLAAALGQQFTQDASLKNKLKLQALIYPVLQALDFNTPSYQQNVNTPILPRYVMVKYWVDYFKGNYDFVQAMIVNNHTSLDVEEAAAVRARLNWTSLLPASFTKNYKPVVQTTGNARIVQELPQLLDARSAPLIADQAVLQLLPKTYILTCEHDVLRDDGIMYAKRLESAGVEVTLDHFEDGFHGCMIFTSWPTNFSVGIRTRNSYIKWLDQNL

[2] = target: T1, human KIAA1363; test: biochemical

Row | Structure (SMILES) | Ki [1] | IC50 [2]
1 | CCOP(=O)(OCC)Oc1nc(Cl)c(Cl)cc1Cl [CPO, O,O′-Diethyl 3,5,6-trichloro-2-pyridyl phosphate] | 0.76 nM | –
2 | COP(=O)(OC)Oc1ccc([N+](=O)[O-])cc1 [MPO, methyl paraoxon] | – | > 100 nM
